Anti-infective test results gathered from many reports (values: NIAID ChemDB through PubChem).

All rows: growth or infection tests

A number after MIC or MFC names an inhibition level or a share of isolates. ECn is the concentration giving n% inhibition of infection, replication or growth. Fold resistance has wild type as its base. a–b is a range or a potency band. Percent inhibition refers to the dose given; in toxicity tests it is the harm to the cells. Neighbouring rows are from separate reports. An empty or dashed field is not shown.

compound	measure	cell line	mutations	read by	strain or isolate	setting	dose	agent	result
CCCC(CCC)C(NC(C)=O)C1C(N=C(N)N)CC(C(=O)O)C1O	EC50	MDCK			Influenza A/Johannesburg/33/94 (H3N2)			Influenza A virus	0.09 µM
O=C(Nc1ccc(S(=O)(=O)[O-])c2cccc(S(=O)(=O)[O-])c12)c1ccccc1	inhibition	Human amnion AV3 cells		cytopathic effect			50 µg/mL	Rhinovirus	5%
CC(=O)c1ccc(CCCOc2c(C)cc(-c3noc(C(F)(F)F)n3)cc2C)nn1	EC50	HeLa		cytopathic effect				Enterovirus	0.033–0.659 µg/mL
Nc1cccc(S(=O)(=O)O)c1	inhibition	Human embryonic lung cells		cytopathic effect	TYPE 3		10 µg/mL	Adenovirus	0%
N#Cc1cc([N+](=O)[O-])ccc1Oc1ccc(Cl)c(Cl)c1	inhibition	VERO		plaque count	TYPE B4		0.125 µg/mL	Coxsackie virus	9.09%
Cn1cc(C(=O)NCc2ccc(Cl)cc2)c(=O)c2cc(CN3CCOCC3)ccc21	inhibition	HFF		plaque count	SC		5.4 µM	Human cytomegalovirus	90%
CCc1nc2ccc(Cl)cn2c1C(=O)NCc1ccc(C2CCN(c3ccc(OC(F)(F)F)cc3)CC2)cc1F	inhibition			fluorescence			0.0031 µM	Mycobacterium avium	85%
Cc1ccc(CCCOc2c(C)cc(-c3nnn(C)n3)cc2C)nn1	EC50	HeLa		cytopathic effect				Enterovirus	0.033–0.659 µg/mL
Cc1nc2cc(Cl)ccn2c1C(=O)NCc1ccc(N2CCC(c3ccc(OC(F)(F)F)cc3)CC2)c(F)c1.Cl	inhibition			fluorescence			0.51 µM	Mycobacterium avium	85%
Nc1ncnc2c1ncn2[C@@H]1C[C@H](N)[C@@H](O)[C@H]1O	EC50	CV-1		neutral red	Halonen			Measles virus	0.2 µg/mL
CS(=O)(=O)c1cccc(-n2c(C(=O)NCc3ccccc3)c3n(c2=O)CCN(C(=O)c2ccc(Br)c(Cl)c2)C3)c1	EC50	HepG2.117		PCR				Hepatitis B virus	>5 µM
CCCc1ccc(CCCOc2cc(C)c(-c3noc(C4CC4)n3)c(C)c2)nn1	EC50	HeLa		cytopathic effect				Coxsackie virus	0.033–0.659 µg/mL
Nc1ncnc2c1ncn2[C@@H]1CC[C@@H](O)[C@H]1O	EC50	CV-1		cytopathic effect	TN1994			Measles virus	0.1 µg/mL
CC(C)(O)c1cn(-c2ccccc2)nn1	inhibition			broth dilution	URM 4262		2048 µg/mL	Candida tropicalis	0%
CC(=O)N[C@H]1[C@H]([C@H](O)[C@H](O)CO)OC(C(=O)O)=C[C@@H]1N=C(N)N	EC50	MDCK			Influenza A/Beijing/32/92 (H3N2)			Influenza A virus	0.65 µM
C/C=C\[C@@H]1C[C@H](C(=O)O)N[C@H]1[C@@H](NC(C)=O)[C@](C)(CCC)OC	EC50	MDCK		plaque count	Isolate C35C			Influenza B virus	<0.01 µg/mL
O=c1oc2ccc(F)cc2c(=S)n1-c1ccccc1	MIC				My 235/80	14 d		Mycobacterium kansasii	0.5 µM
CSc1ccc(CCCOc2cc(C)c(-c3noc(C(F)F)n3)c(C)c2)nn1	EC50	HeLa		cytopathic effect				Enterovirus	0.033–0.659 µg/mL
Cc1ccc(-n2cc(C(C)(C)O)nn2)cc1C	inhibition			broth dilution	URM 1150		2048 µg/mL	Candida tropicalis	0%
O=C(NNC(=O)Nc1ccccc1C(F)(F)F)Nc1cc(C(F)(F)F)cc(C(F)(F)F)c1	MIC				KL21			Klebsiella pneumoniae	>422 µM
CC1CCC(C(=O)N(c2cc(C#CC(C)(C)C)sc2C(=O)O)C2CCC(O)CC2)CC1	fold resistance	Huh7	I482L	luciferase	Con1 (gt 1b)			Hepatitis C virus	101.2
O=C(NNC(=O)Nc1cc(C(F)(F)F)cc(C(F)(F)F)c1)Nc1cc(C(F)(F)F)cc(C(F)(F)F)c1	MIC				ES142			Escherichia coli	>300 µM
CC(C)(O)c1cn(-c2ccc3ccccc3c2)nn1	inhibition			broth dilution	URM 4889		2048 µg/mL	Candida parapsilosis	0%
COc1ccc(-n2c(C(=O)NCc3ccccc3)c3n(c2=O)CCN(C(=O)c2ccc(Cl)c(Cl)c2)C3)cc1C	EC50	HepG2.117		PCR				Hepatitis B virus	0.5–5 µM
Nc1ncnc2c1ncn2[C@@H]1C[C@H](Sc2ccccc2)[C@@H](O)[C@H]1O	EC50	CV-1		neutral red				Measles virus	>100 µg/mL
Cc1nc(-c2cc(C)c(OCCCc3ccco3)c(C)c2)no1	EC50	HeLa		cytopathic effect				Enterovirus	0.033–0.659 µg/mL
O=S(=O)([O-])c1ccc(O)c2ccccc12	inhibition	Human amnion AV3 cells		cytopathic effect			10 µg/mL	Herpes simplex virus	0%
CC(C)(O)c1cn(-c2ccc([N+](=O)[O-])cc2)nn1	inhibition			broth dilution	URM 4889		2048 µg/mL	Candida parapsilosis	0%
Nc1ncnc2c1ncn2[C@@H]1C=C[C@@H](O)[C@H]1O	EC50	CV-1		cytopathic effect	CC			Measles virus	0.05 µg/mL
Nc1nc2c(ncn2COCCO)c(=O)[nH]1	inhibition	HELF		plaque count	HIRAI		0.1 µg/mL	Varicella zoster virus	12%
Cc1ccc2oc(=O)n(-c3cccc(Cl)c3)c(=S)c2c1	MIC				My 235/80	21 d		Mycobacterium kansasii	4 µM
Oc1ccccc1N=Cc1ccc(F)cc1	MIC99				L24/01			Cryptococcus gattii	8 µg/mL
CC(C)Oc1ccc(-n2c(C(=O)NCc3ccc(=O)n(C)c3)c3n(c2=O)CCN(C(=O)c2ccc(Br)c(Cl)c2)C3)cc1	EC50	HepG2.117		PCR				Hepatitis B virus	>5 µM
N#Cc1ccc(CSc2ncnc3c2ncn3[C@@H]2O[C@H](CO)[C@@H](O)[C@H]2O)cc1	inhibition				RH (WILD TYPE)		5 µM	Toxoplasma gondii	38.5%
O=c1[nH]c(=O)n([C@H]2C[C@H](O)[C@@H](CO)O2)cc1/C=C/Br	inhibition	HELF		plaque count	Asahikawa		0.01 µg/mL	Varicella zoster virus	26%
COc1ccn2nc(C)c(C(=O)NCc3ccc(N4CCN(c5ccc(OC(F)(F)F)cc5)[C@H]5CCCC[C@@H]54)c(F)c3)c2c1.Cl	inhibition			fluorescence			0.78 µM	Mycobacterium avium	85%
C=CCc1ccc(O)c(OC)c1	MIC90			turbidity	321			Candida tropicalis	500 µg/mL
CCOC(=O)c1c(C)nc(OCCCNc2ccnc3cc(Cl)ccc23)nc1-c1ccccc1	MIC99				196L/03			Cryptococcus gattii	8 µg/mL
Cc1cn([C@@H]2O[C@H](CO)[C@@H](O)[C@@H]2O)c(=O)[nH]c1=O	inhibition	HELF		plaque count	KANNO		1 µg/mL	Varicella zoster virus	100%
Cc1ccc(C(=O)Nc2ccc(S(=O)(=O)O)c3cc(S(=O)(=O)O)cc(S(=O)(=O)O)c23)cc1NC(=O)c1cccc(NC(=O)Nc2cccc(C(=O)Nc3cc(C(=O)Nc4ccc(S(=O)(=O)O)c5cc(S(=O)(=O)O)cc(S(=O)(=O)O)c45)ccc3C)c2)c1	inhibition	Human amnion AV3 cells		cytopathic effect			5 µg/mL	Rhinovirus	20%
Cn1cnc2c(CNC(=O)c3c4n(c(=O)n3-c3ccc(OC5CC5)cc3)CCN(C(=O)c3ccc(Br)c(Cl)c3)C4)cccc21	EC50	HepG2.117		PCR				Hepatitis B virus	0.1–0.5 µM
O=c1[nH]c(=O)n([C@H]2C[C@H](O)[C@@H](CO)O2)cc1I	inhibition	HELF		plaque count	Kawaguchi		10 µg/mL	Varicella zoster virus	100%
O=C(Nc1cc(C(F)(F)F)cc(C(F)(F)F)c1)NN(CC(O)CN1CCOCC1)C(=O)Nc1cc(C(F)(F)F)cc(C(F)(F)F)c1	MIC				ES142			Escherichia coli	>300 µM
C=Cc1cn([C@@H]2O[C@H](CO)[C@@H](O)[C@@H]2O)c(=O)[nH]c1=O	inhibition	HELF		plaque count	OKA		1 µg/mL	Varicella zoster virus	91%
O=C(Nc1c(S(=O)(=O)[O-])cc2cc(S(=O)(=O)[O-])cc(O)c2c1O)c1ccccc1	inhibition	Human conjunctiva cells		cytopathic effect			50 µg/mL	Herpes simplex virus	30%
CC(=O)c1ccc(CCCOc2cc(C)c(-c3noc(C(F)F)n3)c(C)c2)nn1	EC50	HeLa		cytopathic effect				Coxsackie virus	0.033–0.659 µg/mL
CCOC(=O)c1ccc(OCCC2CCN(c3ccc(C)nn3)CC2)cc1	EC50	KB		neutral red	209 (ICAM-1 receptor group 39)			Rhinovirus	0.001 µM
Cc1cc(OCCCc2ccc(C=O)nn2)cc(C)c1-c1noc(C(F)F)n1	EC50	HeLa		cytopathic effect				Enterovirus	0.033–0.659 µg/mL
OC[C@H]1O[C@@H](n2c(Cl)nc3cc(Cl)c(Cl)cc32)[C@H](O)[C@@H]1O	EC95			virus yield	D10 (D341E)			Human cytomegalovirus	7.9 µM
OC[C@H]1O[C@@H](n2cnc3c(SCc4ccc(OC(F)(F)F)cc4)ncnc32)[C@H](O)[C@@H]1O	inhibition				RH adenosine kinase-deficient		50 µM	Toxoplasma gondii	4.9%
Oc1ccccc1N=Cc1ccc2c(c1)OCO2	MIC99				L 27/01			Cryptococcus gattii	45.3 µg/mL
CS[C@H]1C=C[C@@H](n2cnc3c(N)ncnc32)C1	EC50	CV-1		cytopathic effect				Measles virus	>100 µg/mL
Fc1cccc(-n2c(=S)oc3ccc(F)cc3c2=S)c1	MIC				6509/96	21 d		Mycobacterium kansasii	16 µM
CCCC(CCC)C(NC(C)=O)C1CC(C(=O)O)CC1N=C(N)N	EC50	MDCK			Harbin/07/94			Influenza B virus	0.06 µM
COc1cc(-c2ccc(N=Nc3ccc4c(S(=O)(=O)O)cc(S(=O)(=O)O)c(N)c4c3O)c(OC)c2)ccc1N=Nc1ccc2c(S(=O)(=O)O)cc(S(=O)(=O)O)c(N)c2c1O	inhibition	Human amnion AV3 cells		cytopathic effect			10 µg/mL	Herpes simplex virus	0%
COc1ccc2oc(=S)n(-c3ccc(Br)cc3)c(=S)c2c1	MIC				6509/96	21 d		Mycobacterium kansasii	32 µM
O=S(=O)([O-])c1ccc(NS(=O)(=O)c2ccccc2)c2c(S(=O)(=O)[O-])cccc12	inhibition	Human amnion AV3 cells		cytopathic effect			10 µg/mL	Herpes simplex virus	25%
CCC(CC)O[C@@H]1C=C(C(=O)O)C[C@H](N)[C@H]1NC(C)=O	EC50	MDCK			B/HONG KONG/5/72			Influenza B virus	2.5 µM
COc1ccc2oc(=O)n(-c3ccccc3)c(=S)c2c1	MIC				My 235/80	14 d		Mycobacterium kansasii	16 µM
Cc1cc(OCCCc2ccc(Cl)nn2)cc(C)c1-c1noc(C(F)(F)F)n1	EC50	HeLa		cytopathic effect				Enterovirus	0.033–0.659 µg/mL
Cc1nc(NCCCCNc2ccnc3cc(Cl)ccc23)nc(-c2ccccc2[N+](=O)[O-])c1C(=O)OC(C)C	MIC99				L24/01			Cryptococcus gattii	8 µg/mL
C=C/C(C)=C/[C@@]1(C)SC(=O)C(C)=C1O	MIC				SJ260 (F143)			Escherichia coli	>600 µM
S=c1oc2ccc(Br)cc2c(=S)n1-c1cccc(Cl)c1	MIC				6509/96	21 d		Mycobacterium kansasii	4 µM
CO[C@H]1/C=C/O[C@@]2(C)Oc3c(C)c(O)c4c(O)c(c5c(c4c3C2=O)NC2(CCN(CC(C)C)CC2)N=5)=NC(=O)/C(C)=C\C=C\[C@H](C)[C@H](O)[C@@H](C)[C@@H](O)[C@@H](C)[C@H](OC(C)=O)[C@@H]1C	MIC				15-Feb			Mycobacterium avium intracellulare	1 µg/mL
Cc1cc2nc(C)c(C(=O)NCc3ccc(N4CCN(c5ccc(OC(F)(F)F)cc5)[C@@H](C)C4)c(F)c3)n2cc1Cl	inhibition			fluorescence			0.033 µM	Mycobacterium avium	85%
Cc1cc(CCCOc2c(C)cc(-c3noc(C(F)(F)F)n3)cc2C)on1	EC50	OHIO HELA-I		cytopathic effect / visual reading	Isolate 34			Rhinovirus	0.01 µg/mL
Oc1cccc(C=Nc2ccccc2O)c1	MIC99				96806			Cryptococcus neoformans	4 µg/mL
CCc1nc2cc(F)ccn2c1C(=O)NCc1ccc(OC2CC(Oc3ccc(OC(F)(F)F)cc3)C2)c(F)c1.Cl	inhibition			fluorescence			0.054 µM	Mycobacterium avium	85%
Nc1ncnc2c1ncn2C=C1CC1CO	EC90			plaque count	VR6189 (ganciclovir-susceptible)			Human cytomegalovirus	4.7 µM
O=S(=O)(O)c1ccc(N=Nc2c(O)ccc3cc(S(=O)(=O)O)ccc23)cc1	inhibition	Human embryonic lung cells		cytopathic effect			50 µg/mL	Rhinovirus	10%
O=C(Nc1cccc(C2=NCCN2)c1)Nc1cccc(C2=NCCN2)c1	MIC				ES142			Escherichia coli	>300 µM
O=S(=O)([O-])c1ccc2c(S(=O)(=O)[O-])cc(S(=O)(=O)[O-])cc2c1	inhibition	Human amnion AV3 cells		cytopathic effect	TYPE 3		5 µg/mL	Adenovirus	0%
COc1ccc(-n2c(C(=O)N[C@H]3CCc4ccccc43)c3n(c2=O)CCN(C(=O)c2ccc(Br)c(Cl)c2)C3)cc1	EC50	HepG2.117		PCR				Hepatitis B virus	0.5–5 µM